A mixed list of measured activities; the numbers were collected in NIAID ChemDB.

Shared fields: tests in culture; species: Human cytomegalovirus; read by: plaque count; endpoint: EC50

Lines come from different laboratories, so protocols vary.

compound,cell line,strain or isolate,value
Nc1nc2c(ncn2COC(CO)CO)c(=O)[nH]1,HEL,CMV5USA,0.7 µg/mL
C[C@H]1C[C@@H](n2cnc3c(N)ncnc32)[C@H](O)[C@@H]1O,HEL,AD-169 (20 PFU),>100 µg/mL
O=C(O)c1cc(O)c2c(c1)C(=O)c1cccc(O)c1C2=O,MRC-5,Ganciclovir-resistant,2 µM
O=c1[nH]c(=O)n([C@H]2C[C@H](O)[C@@H](COP3(=O)OCc4cc5ccccc5cc4O3)O2)cc1/C=C/Br,HELF,AD169,>128 µg/mL
Nc1ncnc2c1ncn2[C@@H]1C[C@H](O)[C@@H](O)[C@H]1O,HEL,DAVIS (20 PFU),0.4 µg/mL
O=C(NCCc1c[nH]c2ccccc12)C1=Cc2ccncc2CC1,MRC-5,AD169,1.5 µM
Nc1ccn(C[C@@H](CO)OCP(=O)(O)O)c(=O)n1,HEL,DER530 (GCV HPMPC-resistant),2.4 µg/mL
O=c1c(-c2ccc(O)cc2)coc2cc(O)cc(O)c12,HEF,A6245,32.4 µM
Cc1cc(O)c2c(c1)/C(=C1\c3cc(C)cc(O)c3C(=O)c3c(O)cc(O)cc31)c1cc(O)cc(O)c1C2=O,MRC-5,Ganciclovir-resistant,0.8 µM
Cc1cccc2c1OP(=O)(OC[C@H]1O[C@@H](n3cc(/C=C/Br)c(=O)[nH]c3=O)C[C@@H]1OC(=O)CN)OC2,HELF,AD169,>128 µg/mL
O=C(O)C[C@H](NCCN[C@@H](CC(=O)O)C(=O)O)C(=O)O,HEL,AD169,9.1 µg/mL
Cc1cc(=O)c2c(O)c3c(O)cc(O)c4c5c(O)cc(O)c6c(O)c7c(=O)cc(C)c8c1c2c(c34)c(c65)c78,MRC-5,Ganciclovir-resistant,3.8 µM
CC1OP(=O)(OC[C@H]2O[C@@H](n3cc(/C=C/Br)c(=O)[nH]c3=O)C[C@@H]2O)Oc2cccc(Cl)c21,HELF,AD169,>128 µg/mL
NC(=O)c1ncn([C@@H]2O[C@H](CO)[C@@H](O)[C@H]2O)n1,HEL,DAVIS (20 PFU),>100 µg/mL
O=C1c2ccccc2C(=O)c2c1ccc(O)c2O,MRC-5,AD169,24.1 µM
Nc1ncnc2c1ncn2[C@@H]1C[C@H](c2ccccc2)[C@@H](O)[C@H]1O,HEL,AD-169 (20 PFU),18.1 µg/mL
O=C1NCc2c1c1c3ccccc3[nH]c1c1[nH]c3ccccc3c21,HEF,Isolate 6,0.13 µM
CCCCCCCCCC(=O)O[C@H]1C[C@H](n2cc(/C=C/Br)c(=O)[nH]c2=O)O[C@@H]1COP1(=O)OCc2cccc(C)c2O1,HELF,AD169,>64 µg/mL
CC1CNCCN1S(=O)(=O)c1cccc2cnccc12,HEF,A6245,22.5 µM
Nc1ncnc2c1ncn2[C@@H]1C=C(CO)[C@@H](O)[C@H]1O,HEL,AD-169 (20 PFU),0.34 µg/mL

Repeating the final 3 entries:

compound,cell line,strain or isolate,value
CCCCCCCCCC(=O)O[C@H]1C[C@H](n2cc(/C=C/Br)c(=O)[nH]c2=O)O[C@@H]1COP1(=O)OCc2cccc(C)c2O1,HELF,AD169,>64 µg/mL
CC1CNCCN1S(=O)(=O)c1cccc2cnccc12,HEF,A6245,22.5 µM
Nc1ncnc2c1ncn2[C@@H]1C=C(CO)[C@@H](O)[C@H]1O,HEL,AD-169 (20 PFU),0.34 µg/mL

ECn is the concentration giving n% inhibition of infection, replication or growth.